Assay: IP 287 test method for rust prevention characteristics of water mix metal working fluids
Conditions: test amine solutions in 200 ppm water, 2 hours contact with cast iron chips

| Compound | minimum concentration needed to produce a completely stain free piece of filter paper |
| --- | --- |
| NCC1CCCC(CN)C1 (stereo not shown) [1,3-bis(aminomethyl)cyclohexane] | 0.5% |
| CCCC(N)CN (stereo not shown) [1,2-diaminopentane] | 0.5% |
| NCCO [monoethanolamine] | 0.5% |
| CCCCC(O)C(N)CC (stereo not shown) [3-amino-4-octanol] | 1.0% |

From patent US10988703B2, “Metal working fluid” (Italmatch SC, LLC, priority 2019, dated 2021)
